Taken from: PubChem BioAssay AID1259414 (Drosophila RNAi Screening Center, 2018)
Aim: 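Fly genes that alter Wolbachia amount inside host cells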 (primary screen). Cells: Drosophila JW18 cells infected with Wolbachia. Reagent: long dsRNA against Drosophila genes, 0.25 µg dsRNA per well of a 384-well plate. Timing: 5 days. Treatment: cells persistently infected with Wolbachia before knock-down; no added drug. Measurement: 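Imaged fluorescence in situ signal for Wolbachia 23S rRNA per DAPI-counted host cell, given as a robust z-score within each plate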. Direction: Wolbachia per cell robust z: higher = more Wolbachia per host cell than the plate typical. Hit rule: 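Active if absolute robust z reaches 1.5 in two or more of three replicates, leaving out multi- or no-target dsRNAs, genes unexpressed in JW18 and A1 wells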.
The screen tested about 24,000 reagents; this is an unselected part of those with a known target gene and a result. Over the whole deposit, about 1,210 (5%) got an active call. 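Inactive calls also include excluded dsRNAs with several or no targets, genes unexpressed in JW18, and well A1, regardless of score.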 The numbers tell different reagents against one gene apart.

After knock-down of CG12983 the results were Wolbachia per cell robust z, rep 1 = 0.956; Wolbachia per cell robust z, rep 2 = 0.686; Wolbachia per cell robust z, rep 3 = 0.528; inactive.
For Prosbeta4R1, the values are Wolbachia per cell robust z, rep 1 = -0.297; Wolbachia per cell robust z, rep 2 = -0.737; Wolbachia per cell robust z, rep 3 = 0.00684; inactive.
Against Muc14A #1, the entry reads Wolbachia per cell robust z, rep 1 = 0.668; Wolbachia per cell robust z, rep 2 = -1.39; Wolbachia per cell robust z, rep 3 = 1.18; inactive.
Muc14A #2 gave Wolbachia per cell robust z, rep 1 = -1.55; Wolbachia per cell robust z, rep 2 = -5.66; Wolbachia per cell robust z, rep 3 = 0.14; inactive.
With knock-down of CG31176 #1, the record shows Wolbachia per cell robust z, rep 1 = 0.351; Wolbachia per cell robust z, rep 2 = -0.827; Wolbachia per cell robust z, rep 3 = 0.551; inactive.
For CG31176 #2, the values are Wolbachia per cell robust z, rep 1 = -3.57; Wolbachia per cell robust z, rep 2 = 0.226; Wolbachia per cell robust z, rep 3 = 0.0784; inactive.
For Actn #1, the values are Wolbachia per cell robust z, rep 1 = -0.471; Wolbachia per cell robust z, rep 2 = -1.88; Wolbachia per cell robust z, rep 3 = -1.09; inactive.
Actn #2 showed Wolbachia per cell robust z, rep 1 = -0.552; Wolbachia per cell robust z, rep 2 = -2.31; Wolbachia per cell robust z, rep 3 = 0.291; inactive.

A few values from the entries so far:
CG31176 #2, Wolbachia per cell robust z, rep 1: -3.57
Entry of Muc14A #2 under “Wolbachia per cell robust z, rep 1”: -1.55
Under “activity call”, Actn #2 reads inactive
CG31176 #1, Wolbachia per cell robust z, rep 1 → 0.351

Additional records follow.
CG6180 #1 gave Wolbachia per cell robust z, rep 1 = 0.102; Wolbachia per cell robust z, rep 2 = -0.393; Wolbachia per cell robust z, rep 3 = 1.01; inactive.
For CG6180 #2, the entry reads Wolbachia per cell robust z, rep 1 = 0.252; Wolbachia per cell robust z, rep 2 = -0.363; Wolbachia per cell robust z, rep 3 = 0.0912; inactive.
For CG32006 #1 the deposit lists Wolbachia per cell robust z, rep 1 = -2.04; Wolbachia per cell robust z, rep 2 = -1.41; Wolbachia per cell robust z, rep 3 = -0.462; inactive.
CG32006 #2 gave Wolbachia per cell robust z, rep 1 = -0.221; Wolbachia per cell robust z, rep 2 = 0.499; Wolbachia per cell robust z, rep 3 = -0.0663; inactive.
Silencing of CG7523 resulted in: Wolbachia per cell robust z, rep 1 = 1.04; Wolbachia per cell robust z, rep 2 = -0.344; Wolbachia per cell robust z, rep 3 = 1.12; inactive.
For CG4066 #1 the deposit lists Wolbachia per cell robust z, rep 1 = -0.722; Wolbachia per cell robust z, rep 2 = 0.336; Wolbachia per cell robust z, rep 3 = -7.21; inactive.
CG4066 #2 showed Wolbachia per cell robust z, rep 1 = -0.859; Wolbachia per cell robust z, rep 2 = 0.605; Wolbachia per cell robust z, rep 3 = -4.42; inactive.
With knock-down of CG9400 the results were Wolbachia per cell robust z, rep 1 = -4.48; Wolbachia per cell robust z, rep 2 = 0.716; Wolbachia per cell robust z, rep 3 = 1.2; inactive.
After knock-down of Sys1, the screen gave Wolbachia per cell robust z, rep 1 = 0.326; Wolbachia per cell robust z, rep 2 = 0.959; Wolbachia per cell robust z, rep 3 = -4.61; inactive.
With knock-down of dsh #1 the results were Wolbachia per cell robust z, rep 1 = 0.244; Wolbachia per cell robust z, rep 2 = -0.122; Wolbachia per cell robust z, rep 3 = 1.01; inactive.
dsh #2 gave Wolbachia per cell robust z, rep 1 = 0.409; Wolbachia per cell robust z, rep 2 = -0.99; Wolbachia per cell robust z, rep 3 = -1.61; inactive.
With knock-down of NKCC #1, the screen gave Wolbachia per cell robust z, rep 1 = 0.16; Wolbachia per cell robust z, rep 2 = -0.602; Wolbachia per cell robust z, rep 3 = -0.395; inactive.
NKCC #2 scored Wolbachia per cell robust z, rep 1 = -1.17; Wolbachia per cell robust z, rep 2 = 0.61; Wolbachia per cell robust z, rep 3 = 1.08; inactive.
After knock-down of Mtk #1, the screen gave Wolbachia per cell robust z, rep 1 = -0.77; Wolbachia per cell robust z, rep 2 = -4.13; Wolbachia per cell robust z, rep 3 = -1.57; active.
For Mtk #2 the deposit lists Wolbachia per cell robust z, rep 1 = 0.00307; Wolbachia per cell robust z, rep 2 = -2.16; Wolbachia per cell robust z, rep 3 = -0.787; inactive.
With knock-down of CG8117 #1, the screen gave Wolbachia per cell robust z, rep 1 = 0.284; Wolbachia per cell robust z, rep 2 = 0.801; Wolbachia per cell robust z, rep 3 = 0.698; inactive.
Knock-down of CG8117 #2 resulted in: Wolbachia per cell robust z, rep 1 = 0.116; Wolbachia per cell robust z, rep 2 = 1.94; Wolbachia per cell robust z, rep 3 = 1.05; inactive.
